A mixed list of measured activities; the numbers were collected in NIAID ChemDB.

Shared fields: tests in culture

Fold resistance: result on the changed form divided by that on wild type. Lines come from different laboratories, so protocols vary. Blank or dashed fields: not listed here. Percent inhibition refers to the dose given; in toxicity tests it is the harm to the cells. ECn: concentration that inhibits the pathogen or its effect by n%.

smiles,species,strain or isolate,changes,cells,method,measure,dose,result
O=C1Nc2ccc(F)c(F)c2[C@@](/C=C/C2CC2)(C(F)(F)F)N1,HIV-1,-,RT-G190S,-,-,fold resistance,-,65.8
O=C(N[C@@H](Cc1ccccc1)C(=O)C(F)(F)N(Cc1ccccc1)S(=O)(=O)c1ccccc1)O[C@H]1CCOC1,HIV-1,IIIB,-,CEM,p24,EC90,-,1 µM
Cc1cc(OCCCN2CCOCC2)ccc1NC(=O)COc1ccc(Cl)cc1C(=O)c1cccs1,HIV-1,HXB2,RT-Y181C,HeLa + HELA CD4+,β-galactosidase,fold resistance,-,~1
O=C(c1ccccc1)N(CCc1ccccc1)C[C@H](O)CN(CC1CCCC1)S(=O)(=O)c1ccc2nc[nH]c2c1,HIV-1,IIIB,-,CEM,p24,EC90,-,1 µM
CCc1cc(C#N)cc(C(=O)c2cc(Cl)ccc2OCC(=O)Nc2ccc(S(N)(=O)=O)cc2C)c1,HIV-1,HXB2 (RT-K103N G190A) Recombinant,RT-K103N G190A,HeLa + HELA CD4+,β-galactosidase,fold resistance,-,~1
CC(=O)NC1C=CN(c2cn(C(O)P(=O)(O)O)nn2)C(=O)N1,HIV-2,ROD,-,CEM,-,inhibition,100 µM,0%
COc1ccc(S(=O)(=O)N(CCC(O)CN(CC(C)C)S(=O)(=O)c2ccccc2)CC(C)C)cc1,HIV-1,IIIB,-,CEM,p24,EC90,-,1 µM
CC(C)=CCOc1cc(NC(=S)c2ccoc2C)ccc1Cl,HIV-1,NL4-3,RT-L74V,CEM + CEM-SS,p24,fold resistance,-,1
O=c1ccn(-c2cn(CP(=O)(O)O)nn2)c(=O)[nH]1,HIV-2,ROD,-,CEM,-,inhibition,100 µM,0%
O=C(NCCc1ccccc1)Nc1nc2ccccc2s1,HIV-2,-,-,MT-4,cytopathic effect / XTT,inhibition,0.1 µg/mL,17%
Cc1cc2[nH]cnc2cc1NC(=O)COc1ccc(Cl)cc1C(=O)c1cc(F)cc(C(F)(F)F)c1,HIV-1,HXB2,RT-V106A Y181C,HeLa + HELA CD4+,β-galactosidase,fold resistance,-,~100
COc1ccc(S(=O)(=O)N(CC2CCCC2)C(=O)C(=O)C(=O)[C@@H](Cc2ccccc2)NC(=O)O[C@H]2CCOC2)cc1,HIV-1,IIIB,-,CEM,p24,EC90,-,1 µM
O=C1Nc2ccc(Cl)cc2[C@@](/C=C/C2CC2)(C(F)(F)F)N1,HIV-1,-,RT-K103N V108I,-,-,fold resistance,-,47.5
O=C(NCCc1ccccc1)Nc1nc2ccc(F)cc2s1,HIV-2,-,-,MT-4,RT activity,inhibition,1 µg/mL,77%
COc1ccc(S(=O)(=O)N(CC(C)C)C[C@@H](O)CCN(CC2CCCC2)S(=O)(=O)c2cccnc2)cc1,HIV-1,IIIB,-,CEM,p24,EC90,-,1 µM
O=C1[C@@H](Cc2ccc(O)cc2)NC(=S)N1c1ccccc1,HIV-2,-,-,MT-4,cytopathic effect / XTT,inhibition,10 µg/mL,12%
Cc1cc(S(N)(=O)=O)ccc1NC(=O)COc1ccc(Cl)cc1C(=O)c1cc(F)cc(C#N)c1,HIV-1,HXB2,RT-V106A Y181C,HeLa + HELA CD4+,β-galactosidase,fold resistance,-,~1
CN1C(=O)[C@@H](Cc2ccccc2)NC1=S,HIV-2,-,-,MT-4,RT activity,inhibition,100 µg/mL,98%
O=C(O)c1cc(-n2cccc2)ccc1Cl,HIV-1,94UG103 X4R5 CLADE A,-,PBMC + MT-2,p24,EC90,-,78.15 µM
CCOP(=O)(CCn1cc(N2C=CC(NC(C)=O)NC2=O)nn1)OCC,HIV-2,ROD,-,CEM,-,inhibition,100 µM,0%
CCCCN1C(=O)[C@@H](Cc2ccccc2)NC1=S,HIV-2,-,-,MT-4,RT activity,inhibition,100 µg/mL,98%
O=c1ccn(-c2cn(CCCP(=O)(O)O)nn2)c(=O)[nH]1,HIV-2,ROD,-,CEM,-,inhibition,100 µM,0%
CC(C)CN(CC(O)CNc1cc(C(C)(C)C)[nH]n1)S(=O)(=O)c1ccccc1,HIV-1,IIIB,-,CEM,p24,EC90,-,1 µM
CCOP(=O)(CCCn1cc(-n2ccc(=O)[nH]c2=O)nn1)OCC,HIV-2,ROD,-,CEM,-,inhibition,100 µM,0%
Cc1ccnc(NC(=O)NCCc2ccccc2)n1,HIV-2,-,-,MT-4,RT activity,inhibition,100 µg/mL,100%

The last 2 rows once more:

CCOP(=O)(CCCn1cc(-n2ccc(=O)[nH]c2=O)nn1)OCC ; species: HIV-2 ; strain or isolate: ROD ; cells: CEM ; measure: inhibition ; dose: 100 µM ; result: 0%
Cc1ccnc(NC(=O)NCCc2ccccc2)n1 ; species: HIV-2 ; cells: MT-4 ; method: RT activity ; measure: inhibition ; dose: 100 µg/mL ; result: 100%